Source: patent US20250154231A1 (RQBIO COVID, published 2025)

B1: Omi06 (antibody, V domains shown)
VH: EVQLLESGPGLVKPSETLSLTCTVSGGSISRYSWSWIRQPAGRGLEWIGRMYSSGGTNYNPSLESRVTMSLDTSKKQFSLKLSSVTAADTAVYYCAAASIDQVWGTYRDAFDIWGQGTMVTVSS
VL: AIRMTQSPSSLAASVGDRVTISCRAGQSISSFLHWYQQKVGKAPKLLIYDASSLQSGVPSRFSGSGSGTDFTLTISSLQPEDFAAYYCQQSYENPLTFGGGTKVDIK
B2: Omi31 (antibody, V domains shown)
VH: EVQLVQSGAEVKKPGSSVKVSCKASGGTFSSYGISWVRQAPGLGLEWMGGVIPILSAKHYAQRFQGRVTITADKSTGTAYMELSSLRSEDTAVYYCARDILHHDDLWGRFYYDGMDVWGQGTTVTVSS
VL: QSVVTQPPSASGTPGQRVTISCSGSSSDIGSNTVNWYQQLPGTAPKLLIYTNNQRPSGVPDRFSGSKSGTSASLAITGLQSEDEADYFCAAWDESLNGRVFGGGTKLTVL

Columns and labels:
[1] = biological target: T1, Omicron BA.2.12.1 RBD (SARS-CoV-2, UniProt P0DTC2 333-528); test: SPR; BA.2.12.1 by 1:1 equilibrium analysis
T1 construct: domain: RBD

[2] = biological target: T1, Omicron BA.2.12.1 RBD; test: SPR

| Binder | fold weaker binding against BA.2 RBD [1] [fold] | fold weaker binding against BA.2 RBD [2] [fold] |
| --- | --- | --- |
| B1 | 15 | – |
| B2 | – | ~1300 |
